Laboratory results taken from article PMC11112850.
Construct, isoform or probe ends are uncertain for at least one entry.

Chains of the proteins cited; added tags and fusions are not shown. Lines headed by an entry give the natural chain unless they say otherwise; changes in a name come on top.
UniProt P76141: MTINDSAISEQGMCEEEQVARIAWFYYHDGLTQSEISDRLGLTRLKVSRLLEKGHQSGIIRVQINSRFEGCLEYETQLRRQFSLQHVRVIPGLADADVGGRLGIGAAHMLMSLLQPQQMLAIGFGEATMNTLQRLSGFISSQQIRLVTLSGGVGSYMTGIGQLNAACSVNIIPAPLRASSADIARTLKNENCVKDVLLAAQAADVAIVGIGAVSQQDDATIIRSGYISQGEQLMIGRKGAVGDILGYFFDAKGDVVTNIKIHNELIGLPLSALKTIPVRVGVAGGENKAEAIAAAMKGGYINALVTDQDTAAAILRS

Molecular target: LsrR (UniProt P76141)
Experiment: EMSA
Settings: 0, 0.5, 1, 2 uM LsrR, 100 ng probe, dose-dependent shift, 5x binding buffer (4 uL): 100 mM NaCl, 50 mM Tris-HCl, 3 mM Mg acetate, 0.1 mM EDTA, 0.1 mM DTT, pH 7.5, 30 min at 25 C, recombinant protein, protein details: 6xHis, probe letters rebuilt from the primers and the genome

“ATTTCCCCCGTTCAGTTTTGCAGGTGAGTTTTGAACAAATGTATTTCTGCTTTTAATTTGTTCATAACCTTAGGTGGACATTGCACATATTTCCGACGAATAGATCACAATTTATGCTATTTTGATTTTCACGGTTGCGTTTGTTCATGCTCGTAGAGTCAAACTGTGGTTGCCATCACAGATATAAATGAGCAAGAACTGAACAATTGCATTAAAGATTTAAATATGTTCAAAGTGAAGAATGAATT (double strand) [p-lsrR (lsrR promoter)]”: binds (positive control).

“TTGATTTAACTTATTGATAATAAAGTTAAAAAAACAAATAAATACAAGACAATTGGGGCCAAACTGTCCATATCATAAATAAGTTACGTATTTTTTCTCAAGCATAAAAATATTAAAAAACGACAAAAAGCATCTAACTGTTTGATATGTAAATTATTTCTATTGTAAATTAATTTCACATCACCTCCGCTATATGTAAAGCTAACGTTTCTGTGGCTCGACGCATCTTCCTCATTCTTCTCTCCAAAAACCACCTCATGCAATATAAACATCTATAAATAAAGATAACAATAGAATATTAAGCCAACAAATAAACTGAAAAAGTTTGTCCGCGATGCTTTCCTCTATGAGTCAAAATGGCCCCAAATGTTTCATCTTTTGGGGGAAAACTGTGCAGTGTTGGCAGTCAAACTCGTTTACAAAACAAAGTGTACAGAACGACTGCCCATGTCGATTTAGAAATAGTTTTTTGAAAGGAAAGCAGC (double strand) [p-fim (fimAICDFGH promoter)]”: binds.
